Experiments:
[1] = target: purified recombinant plague plasminogen activator (Pla) (Yersinia pestis, UniProt P17811, INS56GHHHHHH)
purified Pla [2] = target: T1, purified Pla (Yersinia pestis, UniProt P17811, INS56GHHHHHH); settings: pre-incubation with purified Pla, spotted on fibrin film
purified Pla [3] = target: T1, purified Pla
[4] = target: Pla expressed on the surface of Y. pestis (Yersinia pestis, UniProt P17811); assay: Fluorimetric assay with Y. pestis cells expressing Pla on their surface

DABCYL-Arg-Arg-Ile-(EDANS)-NH2
substrate and inhibitory properties compared with the hexamer substrate ([1]; kinetic characterization, fluorimetric and functional fibrinolytic assays): substrate properties similar to those of the hexapeptide
inhibition of Pla-mediated fibrinolysis (inhibitory activity) (purified Pla [2]): activity maintained

CC[C@H](C)[C@H](NC(=O)[C@H](CCCNC(=N)N)NC(=O)[C@H](CCCNC(=N)N)NC(=O)c1ccc(N=Nc2ccc(N(C)C)cc2)cc1)C(=O)N[C@@H](CC(N)=O)C(=O)N[C@@H](CCCNC(=N)N)C(=O)N[C@@H](CCC(=O)NCCNc1cccc2c(S(=O)(=O)O)cccc12)C(N)=O [DABCYL-Arg-Arg-Ile-Asn-Arg-Glu-(EDANS)-NH2]
time to plateau of substrate cleavage ([1]; purified Pla): about 60 min
inhibition of Pla-mediated fibrinolysis (inhibitory activity) (purified Pla [2]): concentration-dependent inhibition
site of cleavage by Pla (purified Pla [3]; LC-MS): between two arginines
time to plateau of substrate cleavage ([4]; cell-associated Pla): about 60 min
inhibition of Pla expressed on the surface of Y. pestis ([4]; high concentrations of the substrate): inhibited

NCCNc1cccc2c(S(=O)(=O)O)cccc12
inhibition of Pla-mediated fibrinolysis (inhibitory activity) (purified Pla [2]): did not inhibit

DABCYL-Arg-Arg-OH
cleavage by Pla (LC-MS) of truncated peptides without EDANS (purified Pla [3]; peptides with DABCYL, lacking EDANS): all, except the shortest peptide DABCYL-Arg-Arg-OH were cleaved

CN(C)c1ccc(N=Nc2ccc(C(=O)O)cc2)cc1
inhibition of Pla-mediated fibrinolysis (inhibitory activity) (purified Pla [2]): did not inhibit

Reference: patent publication US9187523B2 (priority 2006, dated 2015)
